In patent US6664231B1, “Anti-fungal peptides” (priority 1993, dated 2003):

Key:
Candida albicans SLU-1 = experiment: Broth dilution assay, combinations of peptide and amphotericin B; type: cell-based; conditions: amphotericin B 0.047-0.750 μg/ml; FIG. 3
[1] = system: C. albicans (SLU-1 strain); experiment: Survival of mice systemically infected with Candida albicans; type: in vivo, mouse
Description: Groups of 15 male DBA/2J mice at age 6-8 weeks (Jackson Laboratory, Bar Harbor, Me.) were inoculated with 1.24×10^5 C. albicans (SLU-1 strain as described in Example 2) by intravenous injection into the tail vein. Cells were prepared for animal injection as follows. A single colony was selected and used to inoculate a 5 mL tube of Sabouraud dextrose broth. Incubation was at 30° C. with shaking to allow aeration for a period of 15-18 hours. Four mL of the overnight culture were added to 100 mL of fresh Sabouraud dextrose broth (1:25 dilution) and incubated for 4 hours. The 100 mL culture was pelleted at 1,500×g for 5 minutes. Cells were washed twice by adding 20 mL D-PBS, vortexing and re-centrifuging. Cells were collected in one tube and a sample is diluted 1:10 to be measured by OD570 (1 OD unit=3×10^7 CFU/mL). […] Colonies were counted the following day after overnight incubation at 37° C. […]
Immediately after fungal challenge, the mice were intravenously injected via the tail vein with a 0.1 mL volume of 10 mg/kg XMP.36, 5 mg/kg XMP.97, 10 mg/kg XMP.102, 1 mg/kg amphotericin B (Sigma, St. Louis, Mo.), or phosphate buffered saline (PBS) as a control. […] Mice were monitored twice daily for mortality until termination of the study at Day 28. […] Statistical significance was evaluated using the Lifetest Survival Curve analysis. […]

| Compound | effect of combination of peptide and amphotericin B (Candida albicans SLU-1) | mice survived until Day 28 ([1]; 1.24×10^5 C. albicans i.v., 3 doses i.v. (Day 0, 2, 4), 10 mg/kg XMP.36, 5 mg/kg XMP.97, 10 mg/kg XMP.102, 1 mg/kg amphotericin B, FIG. 4) [%] | mice survived until Day 28 ([1]; 0.5×10^5 Candida cells, doses Day 0, 2, 5, 10 mg/kg XMP.127, 5 mg/kg XMP.13, 5 mg/kg XMP.37, 1 mg/kg amphotericin B, FIG. 5) [%] |
| --- | --- | --- | --- |
| CC[C@H](C)[C@H](NC(=O)[C@H](CC(C)C)NC(=O)[C@H](Cc1c[nH]c2ccccc12)NC(=O)[C@H](CCCCN)NC(=O)[C@@H](NC(=O)[C@H](CCCCN)NC(=O)[C@H](CO)NC(=O)[C@@H](N)CCCCN)C(C)C)C(=O)N[C@@H](CCC(N)=O)C(=O)N[C@@H](CC(C)C)C(=O)N[C@@H](Cc1ccccc1)C(=O)N[C@@H](Cc1c[nH]cn1)C(=O)N[C@@H](CCCCN)C(=O)N[C@@H](CCCCN)C(N)=O [XMP.97] | decreasing the amount of both anti-fungal agents required for maximum killing | 53 | – |
| CC[C@H](C)[C@H](NC(=O)[C@H](CC(C)C)NC(=O)[C@H](Cc1ccccc1)NC(=O)CNC(=O)[C@@H](NC(=O)[C@H](CCCCN)NC(=O)[C@H](CO)NC(=O)[C@@H](N)CCCCN)C(C)C)C(=O)N[C@@H](CCC(N)=O)C(=O)N[C@@H](CC(C)C)C(=O)N[C@@H](Cc1ccccc1)C(=O)N[C@@H](Cc1c[nH]cn1)C(=O)N[C@@H](CCCCN)C(=O)N[C@@H](CCCCN)C(N)=O [XMP.127] | – | – | 67 |
